The Km is the substrate concentration at which the rate is half of its maximum.

For the data set, the system named is O=c1ccn([C@@H]2O[C@H](COP(=O)(O)OP(=O)(O)O[C@H]3O[C@@H]([C@H](O)CO)[C@H](O)[C@H]3O)[C@@H](O)[C@H]2O)c(=O)[nH]1. Nature of the data set: purified protein. To be noted: pH 7.5, 37 °C, 20 mM dithionite (reduced FAD).
For “TcUGM (UDP-galactopyranose mutase from Trypanosoma cruzi) (Trypanosoma cruzi strain CL Brener; G61P)”, the Km came to 90 ± 20 µM.
The value for “TcUGM (UDP-galactopyranose mutase from Trypanosoma cruzi) (Trypanosoma cruzi strain CL Brener; H62A)” was 24 ± 4 µM.
For the substance “TcUGM (UDP-galactopyranose mutase from Trypanosoma cruzi) (Trypanosoma cruzi strain CL Brener; G61A)”, the Km came to 50 ± 10 µM.

The values above are taken from article PMC3426654 (Biochemistry, 2012).
